The test system of data set [1] is His-Tal6b/AvrXa27A (Xanthomonas oryzae pv. oryzae LN18). Nature of the data set: EMSA. The settings on record: pH and temperature not stated, recombinant protein, protein details: His (pET-30a), label: Cy5. (In general: A gel shift assay detects complexes by their altered migration in electrophoresis.)
Another data set concerns the target His-PthXo1 (UniProt B2SU53). Nature of the data set: EMSA. As to conditions: pH and temperature not stated, recombinant protein, protein details: His, label: Cy5.

For at least one entry, the source does not settle the construct or the ends of the probe.

Consider “GCATCTCCCCCTACTGTACACC (double strand) [Xa13p-9]”, for which the binding result in data set [1] is listed as “binds”.
Consider “ATCTCCCCCTACTGTACAC (double strand) [Xa13p-10]”, for which the binding result in data set [1] is listed as “binds”.
As for “AGCTCCCCCTACTGTACAC (double strand) [Xa13p-11]”, the binding result in data set [1] was “binds”.
In the case of “GTTAGATATGCATCTCCCCCTTAGGTACACCACCAAAAGT (double strand) [Xa13p-5]”, the binding result in data set [1] was “binds”.
With “GTTAGATATGCATCTCCCCCTACTGTACACCACCAAAAGT (double strand) [Xa13p]”, the binding result (with His-PthXo1; in data set [1]) was “binds” throughout.
As to “GTGCTATAAATAGAAGAAGAGACCCATAGAGAGC (double strand) [Xa27p]”, in data set [1] (reduced by unlabeled Xa27p), the binding result is “binds”.

The record behind these values is article PMC10873877.
